Assay results: PMC6312359, “Diisopropylphenyl-imidazole (DII): A new compound that exerts anthelmintic activity through novel molecular mechanisms” (PLoS Neglected Tropical Diseases, 2018)

Experiments:
C. elegans [1] = assay: Lethality assays, dose-dependent, wild-type L4; type: in vivo, Caenorhabditis elegans; conditions: lethal dose curve
Experimental: Dose-dependent lethality was quantified by exposing 40 L4s to DII (0–1000 μM) dissolved in solid medium for 8 and 24 h at 20°C. For survival to 96 h of DII exposure the temperature used was 13°C to avoid food depletion.

C. elegans [2] = assay: Acute paralysis assays; type: in vivo, Caenorhabditis elegans; conditions: for Hill-slope acute paralysis curve: 10 min, Fig 4B
Experimental: Acute paralysis assays were carried out in microtiter plates containing the drug dissolved in M9 buffer. […] Each drug concentration was tested in two wells (containing 30 animals each) within a single experiment. […] The experiment was independently repeated at least three times.

Row | Compound | Hill-slope (C. elegans [1]; 8 h of exposure) | Hill-slope (C. elegans [1]; 24 h of exposure) | Hill slope (C. elegans [1]; 96 h of exposure) | Hill-slope acute paralysis curve (C. elegans [2]) | Hill-slope levamisole paralysis curve (C. elegans [2]; Fig 4E black circle) | Hill-slope levamisole paralysis curve (C. elegans [2]; Fig 4E dark pink triangle up) | Hill-slope levamisole paralysis curve (C. elegans [2]; Fig 4E light pink triangle down) | Hill slope levamisole paralysis curve (C. elegans [2]; S5D Fig black circle) | Hill slope levamisole paralysis curve (C. elegans [2]; S5D Fig pink triangle)
1 | CC(C)c1cccc(C(C)C)c1-n1ccnc1 [Compound 11] | 4.4 ± 0.9 | 6.7 ± 1.3 | 2.15 ± 0.25 | 1.96 ± 2.31 | – | – | – | – | –
2 | c1ccc([C@H]2CN3CCSC3=N2)cc1 [levamisole] | – | – | – | 2.39 ± 1.37 | 1.78 ± 0.36 | 2.65 ± 0.81 | 2.36 ± 0.61 | 1.23 ± 0.26 | 1.38 ± 0.54
